This passage reports TI results from patent US6906198B1, “Antipicornaviral compounds, their preparation and use” (Agouron Pharmaceuticals, Inc., priority 1998, dated 2005).

Molecules are shown by their SMILES.

Series [1] concerns HRV serotype 2. As to the kind of experiment: Antirhinoviral H1-HeLa cell culture assay (XTT), HRV-2. The format is cell-based, human rhinovirus. Conditions: therapeutic index CC50/EC50, HRV (2). The procedure:
(§1) Antirhinoviral H1-HeLa Cell Culture Assay
(§2) In this cell protection assay, the ability of compounds to protect cells against HRV infection was measured by the XTT dye reduction method, which is described in Weislow et al., J. Natl. Cancer Inst. 1989, vol. 81, 577-586.
(§3) H1-HeLa cells were infected with HRV-14 at a multiplicity of infection (m.o.i.) of 0.13 (virus particles/cell) or mock-infected with medium only. Infected or mock-infected cells were resuspended at 8×10^5 cells per mL, and incubated with appropriate concentrations of the compounds to be tested. Two days later, XTT/PMS was added to test plates and the amount of formazan produced was quantified spectrophotometrically at 450/650 nm. The EC50 value was calculated as the concentration of compound that increased the percentage of formazan production in compound-treated, virus-infected cells to 50% of that produced by compound-free, mock-infected cells. The 50% cytotoxic dose (CC50) was calculated as the concentration of compound that decreased the percentage of formazan produced in compound-treated, mock-infected cells to 50% of that produced by compound-free, mock-infected cells. The therapeutic index (TI) was calculated by dividing the CC50 value by the EC50 value.
(§4) All strains of human rhinovirus (HRV) for use in this assay were purchased from American Type Culture Collection (ATCC), except for HRV serotype-14 (produced from the infectious cDNA clone constructed by Dr. Robert Rueckert, Institute for Molecular Virology, University of Wisconsin, Madison, Wis.). HRV stocks were propagated and viral assays were performed in H1-HeLa cells (ATCC). Cells were grown in minimal essential medium with 10% fetal bovine serum, available from Life Technologies (Gaithersburg, Md.).
(§5) The compounds were tested against control compounds WIN 51711, WIN 52084, and WIN 54954 (obtained from Sterling-Winthrop Pharmaceuticals), Pirodavir (obtained from Janssen Pharmaceuticals), and Pleconaril (prepared according to the method described in Diana et al., J. Med. Chem 1995, vol. 38, 1355). Antiviral data obtained for the test compounds are shown in Tables 1 and 3, where all data are for HRV serotype-14 unless otherwise noted in parentheses.
In general terms: Formazan colour is commonly taken as a measure of viable cells.

Series [2] has as its system HRV serotype 12. As to the kind of experiment: Antirhinoviral H1-HeLa cell culture assay (XTT), HRV-12. The format is cell-based, human rhinovirus. The conditions noted are these: therapeutic index CC50/EC50, HRV (12). The procedure: as §1, §2, §3, §4, §5
Series [3] deals with HRV serotype 3. As to the kind of experiment: Antirhinoviral H1-HeLa cell culture assay (XTT), HRV-3. The format is cell-based, human rhinovirus. The conditions noted are these: therapeutic index CC50/EC50, HRV (3). The procedure: as §1, §2, §3, §4, §5
Series [4] relates to HRV serotype 9. As to the kind of experiment: Antirhinoviral H1-HeLa cell culture assay (XTT), HRV-9. The format is cell-based, human rhinovirus. The conditions noted are these: therapeutic index CC50/EC50, HRV (9). The procedure: as §1, §2, §3, §4
The compounds were tested against control compounds WIN 51711, WIN 52084, and WIN 54954 (obtained from Sterling-Winthrop Pharmaceuticals), Pirodavir (obtained from Janssen Pharmaceuticals), and Pleconaril (prepared according to the method described in Diana et al., J. Med. Chem 1995, vol. 38, 1355). […]

Series [5] has as its system HRV serotype 13. As to the kind of experiment: Antirhinoviral H1-HeLa cell culture assay (XTT), HRV-13. The format is cell-based, human rhinovirus. The conditions noted are these: therapeutic index CC50/EC50, HRV (13). The procedure: as §1, §2, §3, §4, §5
Series [6] has as its system HRV serotype 17. As to the kind of experiment: Antirhinoviral H1-HeLa cell culture assay (XTT), HRV-17. The format is cell-based, human rhinovirus. The conditions noted are these: therapeutic index CC50/EC50, HRV (17). The procedure: as §1, §2, §3, §4, §5
Series [7] relates to Coxsackievirus type A-21 (CAV-21). As to the kind of experiment: Anticoxsackieviral cell culture assay (XTT), CAV-21. The conditions noted are these: therapeutic index CC50/EC50, CAV-21. The format is cell-based. On the procedure:
Anticoxsackieviral Cell Culture Assay
Coxsackievirus types A-21 (CAV-21) and B3 (CVB-3) were purchased from American Type Culture Collection (ATCC, Rockville, Md.). Virus stocks were propagated and antiviral assays were performed in H1-HeLa cells (ATCC). Cells were grown in minimal essential medium with 10% fetal bovine serum (Life Technologies, Gaithersburg, Md.).
The ability of compounds to protect cells against either CAV-21 or CVB-3 infection was measured by the XTT dye reduction method. This method is described in Weislow et al., J. Natl. Cancer Inst. 1989, vol. 81, 577-586. H1-HeLa cells were infected with CAV-21 or CVB-3 at a multiplicity of infection (m.o.i.) of 0.025 or 0.075, respectively, or mock-infected with medium only. H1-HeLa cells were plated at 4×10^4 cells per well in a 96-well plate and incubated with appropriate concentrations of the test compound. One day (CVB-3) or two days (CAV-21) later, XTT/PMS was added to test plates and the amount of formazan produced was quantified spectrophotometrically at 450/650 nm. The EC50 was calculated as the concentration of compound that increased the formazan production in compound-treated, virus-infected cells to 50% of that produced by compound-free, uninfected cells. The 50% cytotoxic dose (CC50) was calculated as the concentration of compound that decreased formazan production in compound-treated, uninfected cells to 50% of that produced in compound-free, uninfected cells. The therapeutic index (TI) was calculated by dividing the CC50 by the EC50.
The compounds were tested against control compounds WIN 54954 (obtained from Sterling-Winthrop Pharmaceuticals), Pirodavir (obtained from Janssen Pharmaceuticals), and Pleconaril (prepared according to Diana et al., J. Med. Chem. 1995, 38, 1355).

Series [8] has as its system HRV serotype 89. As to the kind of experiment: Antirhinoviral H1-HeLa cell culture assay (XTT), HRV-89. The format is cell-based, human rhinovirus. Conditions: therapeutic index CC50/EC50, HRV (89). The procedure: as §1, §2, §3, §4, §5
Series [9] has as its system enterovirus type 70 (EV 70). As to the kind of experiment: Anti-enteroviral cell culture assay (XTT), EV 70. The conditions noted are these: therapeutic index CC50/EC50, EV-70. The format is cell-based. The procedure: Anti-Echoviral and -Enteroviral Cell Culture Assays
Echovirus type 11 (EV 11) and enterovirus type 70 (EV 70) were purchased from ATCC (Rockville, Md.). Virus stocks were propagated and antiviral assays were performed in MRC-5 cells (ATCC). Cells were grown in minimal essential medium with 10% fetal bovine serum (Life Technologies, Gaithersburg, Md.).
The ability of compounds to protect cells against either EV 11 or EV 70 infection was measured by the XTT dye reduction method (Weislow et al., J. Natl. Cancer Inst. 1989, vol. 81, 577-586). MRC-5 cells were infected with EV 11 or EV 70 at an m.o.i. of 0.003 or 0.004, respectively, or mock-infected with medium only. Infected or uninfected cells were added at 1×10^4 cells per well and incubated with appropriate concentrations of compound. Four days later, XTT/PMS was added to test plates, and the amount of formazan produced was quantified spectrophotometrically at 450/650 nm. The EC50 was calculated as the concentration of compound that increased the formazan production in compound-treated, virus-infected cells to 50% of that produced by compound-free, uninfected cells. The 50% cytotoxic dose (CC50) was calculated as the concentration of compound that decreased formazan production in compound-treated, uninfected cells to 50% of that produced in compound-free, uninfected cells. The therapeutic index (TI) was calculated by dividing the CC50 by the EC50.
The compounds were tested against control compounds Pirodavir (obtained from Janssen Pharmaceuticals) and Pleconaril (prepared according to Diana et al., J. Med. Chem. 1995, vol. 38, 1355). Antiviral data obtained for the test compounds against strain EV 11 and EV 70 are shown below in Table 5.

`CCOC(=O)/C=C/[C@H](C[C@@H]1CCNC1=O)NC(=O)[C@@H](CC(=O)[C@@H](NC(=O)c1cc(C)on1)C(C)C)Cc1ccc(F)cc1` [(B-2), Ethyl-3-{(5′-Methylisoxazole-3′-carbonyl)-L-ValΨ(COCH2)-L-(4-F-Phe)-L-((S)-Pyrrol-Ala)}-E-Propenoate]: the TI in series [1] is given as above 5000; in series [2] it was above 2000; in [3] it was above 5000; in [4], above 16666; in series [5], above 10000; in series [6], above 10000. Further, the TI in series [7] is above 625; in series [8], above 11111; in series [9], above 33333.
